Measured values from patent US5166348A, “Bornyl and isobornyl esters of carboxylic acids of condensed tetrahydroquinoxalines” (Uralsky politekhnichesky institut, priority 1989, dated 1992).

Tested on: influenza virus A, A(Leningrad)23/81/HON1/
Assay: sensitivity of influenza virus A strain A(Leningrad)23/81/HON1/ in chick embryos
Type: in vivo
Conditions: for Virus titres (lg EID50): 1 mg/embryo; for log reduction at 1 mg/embryo: unidentified influenza virus, 48 h, read-out: Titre difference in control and experiment (lg EID50)

| Structure (SMILES) | Virus titres (lg EID50) | log reduction at 1 mg/embryo |
| --- | --- | --- |
| CC1=C(C(=O)OC2CC3CCC2(C)C3(C)C)C2Nc3ccccc3N(C)C2O1 (stereo not shown) [compound 1a, isobornyl ester of 2,9-dimethyl-3a,4,9,9a-tetrahydrofuro [2,3-b] quinoxaline-3-carboxylic acid] | 3.0 | 1.75 |
| CC(N)C12CC3CC(CC(C3)C1)C2 (stereo not shown) [remantadine, reference compound] | 4.5 | 0.25 |
